# From publication PMC12120630, “Nicotianin-I: A Tobacco Floral Nectar Peptide with Anticandidal Activity” (ACS Omega, 2025)
# Like-named read-outs stand apart in the source and are kept apart here. Residues, ends and D or L forms follow the SMILES beside them.
# Tested on: zebrafish embryos / Candida
smiles,measurement,setting,value
C[C@@H]1[C@H](O)[C@@H](C)/C=C/C=C/CC/C=C/C=C/C=C/C=C/C(O[C@H]2O[C@H](C)[C@@H](O)[C@H](N)[C@@H]2O)CC2O[C@](O)(CC(O)C(O)CCC(O)CC(O)CC(O)CC(=O)O[C@H]1C)CC(O)C2C(=O)O (stereo partly drawn) [nystatin],therapeutic index,from literature LC50 (zebrafish embryos) and MIC (C. albicans and C. parapsilosis),6.2
CC(C)C[C@H](NC(=O)[C@H](CS)NC(=O)[C@H](Cc1ccc(O)cc1)NC(=O)CNC(=O)[C@H](Cc1c[nH]cn1)NC(=O)[C@H](CCCNC(=N)N)NC(=O)[C@@H](NC(=O)[C@H](CS)NC(=O)[C@H](CO)NC(=O)[C@H](Cc1ccc(O)cc1)NC(=O)[C@H](Cc1c[nH]cn1)NC(=O)[C@@H](N)CCCCN)[C@@H](C)O)C(=O)N[C@@H](C)C(=O)N[C@@H](CS)C(=O)N[C@@H](Cc1ccc(O)cc1)C(=O)N[C@@H](CCCCN)C(=O)N[C@@H](CCCNC(=N)N)C(=O)N[C@@H](Cc1c[nH]c2ccccc12)C(=O)N[C@@H](Cc1ccccc1)C(=O)O [nicotianin-I] (H-KHYSCTRHGYCLACYKRWF-OH),therapeutic index,zebrafish LC50 / MIC for C. albicans,0.45
same,therapeutic index,zebrafish LC50 / MIC for C. parapsilosis,0.38
